Compound potency records, mixed from different reports. Data source: NIAID ChemDB in PubChem.

Common to all: growth or infection tests; species: Hepatitis B virus; read-out: EC50

ECn: concentration that inhibits the pathogen or its effect by n%. a–b is a range or a potency band. Conditions beyond the fields shown may differ between rows. Blank or dashed fields: not listed here.

smiles | strain | read by | cell line | result
CS(=O)(=O)c1cccc(-n2c(C(=O)NCc3ccccc3)c3n(c2=O)CCN(C(=O)c2ccc(Br)c(Cl)c2)C3)c1 |  | PCR | HepG2.117 | >5 µM
COCCCOc1cc2c(cc1-c1ncco1)-c1c(cc(C(=O)O)c(=O)n1C1CC1)C(C)S2(=O)=O |  | antigen / visual reading / absorbance | Primary human hepatocytes | >0.5 µM
Cn1nc2cc(NS(=O)(=O)c3cnn(-c4cc(OCc5ccccc5)ccn4)c3)ccc2c1C(=O)Nc1ccc(F)c(Cl)c1 |  | PCR | HepAD38 | 100–1000 µM
COCCC(C)Oc1cc2c(cc1Cl)-c1c(cc(C(=O)O)c(=O)n1C1CC1)CS2(=O)=O |  | antigen / visual reading / absorbance | Primary human hepatocytes | >0.05 µM
CC(C)Oc1ccc(-n2c(C(=O)NCc3ccc(CO)cc3)c3n(c2=O)CCN(C(=O)c2ccc(Br)c(Cl)c2)C3)cc1 |  | PCR | HepG2.117 | >5 µM
Cn1nc2cc(NS(=O)(=O)c3cnn(-c4ccncc4)c3)ccc2c1C(=O)Nc1ccc(F)c(Cl)c1 |  | PCR | HepAD38 | <100 µM
C[C@H]1Cc2c(n3ncc(CC4CCC4)c3n(-c3ccc(-c4nncn4C)cc3)c2=O)CN1C(=O)c1ccc(Br)c(Cl)c1 |  | luminescence | HepG2.117 | 0.05–0.5 µM
N#CCOc1ccc(CNC(=O)c2c3n(c(=O)n2-c2ccc(OC4CC4)cc2)CCN(C(=O)c2ccc(Br)c(Cl)c2)C3)c(F)c1 |  | PCR | HepG2.117 | 0.1–0.5 µM
Cn1nc2cc(NS(=O)(=O)N(CC3CC3)C3CC3)ccc2c1C(=O)Nc1ccc(F)c(Cl)c1 |  | PCR | HepAD38 | 100–1000 µM
CC(C)Oc1ccc(-n2c(C(=O)NCc3ccc4nc[nH]c4c3)c3n(c2=O)CCN(C(=O)c2ccc(Br)c(Cl)c2)C3)cc1 |  | PCR |  | 0.5–5 µM
COc1cc2c(cc1Cl)-c1c(cc(C(=O)O)c(=O)n1C1CC1)CS2 |  | antigen / visual reading / absorbance | Primary human hepatocytes | 0.1–0.5 µM
Cc1cnn(-c2ccc(-n3c(=O)c4c(n5ncc(CC(C)C)c35)CN(C(=O)c3ccc(Br)c(C(F)(F)F)c3)[C@@H](C)C4)cc2)n1 |  | luminescence | HepG2.117 | 0.5–5 µM
C=C1[C@H](CO)[C@@H](O)C[C@@H]1n1cnc2c(=O)[nH]c(N)nc21 | Genotype D | fluorescence | HepAD38 | 0.076 µM
Cc1ccn(-c2ccc(-n3c(=O)c4c(n5ncc(CC(C)C)c35)CN(C(=O)c3ccc(Br)c(C(F)(F)F)c3)[C@H](C)C4)cc2)n1 |  | luminescence | HepG2.117 | ≤0.05 µM
Cn1nc2cc(C(=O)NC[C@H](O)CO)ccc2c1C(=O)Nc1ccc(F)c(Cl)c1 |  | PCR | HepAD38 | >1000 µM
COc1ccc(-n2c(C(=O)N[C@H](c3ccccc3)C(F)(F)F)c3n(c2=O)CCN(C(=O)c2ccc(Br)c(Cl)c2)C3)cc1 |  | PCR | HepG2.117 | 0.1–0.5 µM
CC(C)[C@H](N)C(=O)OCN(C)C(=O)c1ccc(-n2c(=O)c3c(n4ncc(CC5CC5)c24)CN(C(=O)c2ccc(Br)c(C(F)(F)F)c2)[C@@H](C)C3)cc1 |  | luminescence | HepG2.117 | >5 µM
COCCCOc1cc2c(cc1N1CCCC1=O)-c1c(cc(C(=O)O)c(=O)n1C1CC1)C(C)S2(=O)=O |  | antigen / visual reading / absorbance | Primary human hepatocytes | >0.5 µM
Cn1nc2cc(C(=O)Nc3cnn(CC4CC4)c3)ccc2c1C(=O)Nc1ccc(F)c(Cl)c1 |  | PCR | HepAD38 | 100–1000 µM
C[C@H](c1ccccc1)N1C[C@H](O)Cn2c(c3n(c2=O)CCN(C(=O)c2ccc(Br)c(Cl)c2)C3)C1=O |  | PCR | HepG2.117 | 0.1–0.5 µM
CN(c1ccc2c(C(=O)Nc3ccc(F)c(Cl)c3)n(C)nc2c1)S(=O)(=O)c1cnn(C)c1 |  | PCR | HepAD38 | 100–1000 µM
C[C@H](NC(=O)c1c2n(c(=O)n1-c1ccc(OC3CC3)cc1)CCN(C(=O)c1ccc(Br)c(Cl)c1)C2)c1ccc(OC2COC2)cc1F |  | PCR | HepG2.117 | 0.1–0.5 µM
C[C@@H]1Cc2c(n3ncc(Cc4ccccc4)c3n(-c3ccc(-c4cnnn4C)cc3)c2=O)CN1C(=O)c1ccc(Br)c(C(F)(F)F)c1 |  | luminescence | HepG2.117 | ≤0.05 µM
COCCOc1cc2c(cc1Cl)-c1c(cc(C(=O)O)c(=O)n1C1CC1)C(C)S2(=O)=O |  | antigen / visual reading / absorbance | Primary human hepatocytes | >0.5 µM
CC(C)Cc1cnn2c3c(c(=O)n(-c4ccc5c(c4)ncn5C)c12)C[C@H](C)N(C(=O)c1ccc(Br)c(C(F)(F)F)c1)C3 |  | luminescence | HepG2.117 | 0.05–0.5 µM
CC1c2cc(C(=O)O)c(=O)n(C3CC3)c2-c2cc(Cl)c(OCCCC#N)cc2S1(=O)=O |  | antigen / visual reading / absorbance | Primary human hepatocytes | >0.5 µM
O=C(NCc1ccccc1)c1c2n(c(=O)n1-c1ccc(N3CCC(F)(F)C3)cc1)CCN(C(=O)c1ccc(Br)c(Cl)c1)C2 |  | PCR | HepG2.117 | 0.1–0.5 µM
CNc1n[nH]c2cc(-n3c(=O)c4c(n5ncc(CC(C)C)c35)CN(C(=O)c3ccc(Br)c(Cl)c3)[C@@H](C)C4)ccc12 |  | luminescence | HepG2.117 | 0.05–0.5 µM
CC1c2cc(C(=O)O)c(=O)n(C3CC3)c2-c2cc(Cl)c(-c3cnc(N4CCCC4)nc3)cc2S1(=O)=O |  | antigen / visual reading / absorbance | Primary human hepatocytes | >0.5 µM